According to US10173974B1, “Natural product-based synthesis of novel anti-infective isothiocyanate- and isoselenocyanate-functionalized amphilectane diterpenes” (priority 2015, dated 2019):
Like-named read-outs stand apart in the source and are kept apart here.

Assays:
[1] = system: P. falciparum Dd2 (drug resistant); experiment: SYBR Green parasite proliferation assay, P. falciparum Dd2 strain; type: cell-based, Plasmodium falciparum
[2] = system: P. falciparum 3D7 (chloroquine-sensitive); experiment: SYBR Green parasite proliferation assay, P. falciparum 3D7 strain; type: cell-based, Plasmodium falciparum
[3] = system: Mtb H37Rv (ATCC 27 294); experiment: Microplate Alamar blue assay (MABA), antitubercular activity; type: cell-based, Mycobacterium tuberculosis
[4] = Selectivity index, Vero cells vs Dd2 (CQ-resistant strain)
[5] = Selectivity index, Vero cells vs 3D7 (CQ-sensitive strain)
[6] = Selectivity index, Vero cells vs Mtb H37Rv

Structure (SMILES)	SI (a): IC50 Vero / IC50 Dd2 [1]	SI (b): IC50 Vero / IC50 3D7 [2]	SI (c): IC50 Vero / MIC M. tuberculosis H37Rv [3]	SI (a): IC50 Vero / IC50 Dd2 [1, 4]	SI (b): IC50 Vero / IC50 3D7 [2, 5]	SI (c): IC50 Vero / MIC M. tuberculosis H37Rv [3, 6]
CCN(CC)CCCC(C)Nc1ccnc2cc(Cl)ccc12 (centres unmarked) [CQ, chloroquine, reference compound]	4518	21511	–	–	–	–
C=C(C)C[C@@H]1C[C@H](C)[C@H]2CC[C@H](C)[C@@]3(N=C=[Se])CCC(=C)[C@@H]1[C@H]23 [Compound 6, 8-Isoselenocyanoamphilecta-11(20),15-diene]	639	505	45.3	–	–	–
C=C1CC[C@@]2(N=C=[Se])[C@H]3[C@H](CC[C@@H]2C)[C@@H](C)C[C@@H](CC(C)(C)N=C=[Se])[C@H]13 [Compound 5, 8,15-Diisoselenocyano-11(20)-amphilectene]	–	–	–	7356	19420	12.4
[C-]#[N+]C(C)(C)CC1CC(C)C2CCC(C)C3([N+]#[C-])CCC(=C)C1C23 (single isomer, unassigned; (-)) [Compound 1, (−)-8,15-diisocyano-11(20)-amphilectene, reference compound]	–	–	–	32174	83117	10.2
C=C1CC[C@@]2(N=C=S)[C@H]3[C@H](CC[C@@H]2C)[C@@H](C)C[C@@H](CC(C)(C)N=C=S)[C@H]13 [Compound 2, 8,15-Diisothiocyano-11(20)-amphilectene]	–	–	>1.0	>9	>8	–
